# “And” between values parts separate entries of the source, which are not always exact repeats. Equal values may be shown once.
# T1: human CD20 on Jurkat cells (human, UniProt P11836 1-297)
# T1 sequence: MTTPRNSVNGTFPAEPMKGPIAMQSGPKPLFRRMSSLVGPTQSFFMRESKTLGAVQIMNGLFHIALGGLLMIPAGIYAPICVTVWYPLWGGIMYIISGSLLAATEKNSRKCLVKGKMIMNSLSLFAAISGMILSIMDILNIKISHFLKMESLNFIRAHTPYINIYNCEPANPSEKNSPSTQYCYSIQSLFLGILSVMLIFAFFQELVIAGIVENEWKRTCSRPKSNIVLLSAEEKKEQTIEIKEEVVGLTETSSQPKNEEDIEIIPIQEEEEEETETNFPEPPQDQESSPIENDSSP
# What was measured:
# [1] = molecular target: SARS-CoV-2 spike protein, full P.1 variant (SARS-CoV-2); test: cell-based or functional assay
# [2] = molecular target: SARS-CoV-2 D614G spike protein variant (SARS-CoV-2); test: cell-based or functional assay
# [3] = molecular target: SARS-CoV-2 S protein variant B.1.617.1 (full sequence) (SARS-CoV-2); test: cell-based or functional assay
# [4] = molecular target: SARS-CoV-2 S protein variant C.1.2 (SARS-CoV-2); test: cell-based or functional assay
# [5] = molecular target: SARS-CoV-2 S protein variant BA.4/BA.5 (full sequence) (SARS-CoV-2); test: cell-based or functional assay
# [6] = molecular target: SARS-CoV-2 S protein variant P.1 (full sequence) (SARS-CoV-2); test: cell-based or functional assay
# [7] = molecular target: SARS-CoV-2 S protein variant BA.3 (full sequence) (SARS-CoV-2); test: cell-based or functional assay
# [8] = molecular target: SARS-CoV-2 S protein variant B.1.617.2 (full sequence) (SARS-CoV-2, T19R; G142D; E156G; F157del; R158del; L452R; T478K; D614G; P681R; D950N); test: cell-based or functional assay
# [9] = molecular target: human FcγR3a 176Val allotype receptor (human, UniProt P08637 17-254); test: cell-based or functional assay
# [10] = molecular target: T1, human CD20 on Jurkat cells; test: cell-based or functional assay
# [11] = molecular target: T2, full-length SARS-CoV-2 spike protein (Wuhan-Hu-1) on Jurkat/hCD20 cells (SARS-CoV-2, UniProt P0DTC2 14-1273); test: cell-based or functional assay
# [12] = molecular target: T2, full-length SARS-CoV-2 spike protein …; test: cell-based or functional assay; remark: listed apart in the source
# [13] = molecular target: T2, full-length SARS-CoV-2 spike protein …; test: cell-based or functional assay; remark: listed apart in the source
# [14] = molecular target: T3, full-length SARS-CoV-2 BA.1 S protein on Jurkat/hCD20 cells (SARS-CoV-2 (BA.1 omicron lineage), UniProt P0DTC2 14-1273); test: cell-based or functional assay
# [15] = molecular target: T2, full-length SARS-CoV-2 spike protein …; test: cell-based or functional assay; remark: listed apart in the source
# [16] = molecular target: T3, full-length SARS-CoV-2 BA.1 S protein …; test: cell-based or functional assay; remark: listed apart in the source
# [17] = molecular target: Omicron variant SARS-CoV-2 spike glycoprotein (SEQ ID NO: 1073) (SARS-CoV-2); test: cell-based or functional assay
# [18] = molecular target: SARS-CoV-2 S protein variant B.1.617.1 (Kappa) (SARS-CoV-2); test: cell-based or functional assay
# [19] = molecular target: SARS-CoV-2 S protein variant BA.4/BA.5 (Omicron) (SARS-CoV-2); test: cell-based or functional assay
# [20] = molecular target: SARS-CoV-2 S protein variant P.1 (Gamma) (SARS-CoV-2); test: cell-based or functional assay
# [21] = molecular target: SARS-CoV-2 S protein variant B.1.617.2 (Delta) (SARS-CoV-2, T19R; G142D; E156G; F157del; R158del; L452R; T478K; D614G; P681R; D950N); test: cell-based or functional assay
# [22] = molecular target: SARS-CoV-2 RBD.mmh (Spike amino acids Arg319-Phe541 with C-terminal myc-myc-6-Histidine tag) (SARS-CoV-2, UniProt P0DTC2 319-541)
# [23] = molecular target: SARS-COV-2 RBD-MMH (SARS-COV-2 RBD extracellular domain with C-terminal myc-myc-hexahistidine tag) (SARS-CoV-2)
binder,measurement,setting,value
mAb14255 (antibody) heavy: not shown light: QSALTQPASVSGSPGQSITISCTGTSSDVGSYNLVSWYQQHPGKAPKLMIYEDSKRPSGVANPFSGSKSGNTASLTISGLQAEDEADYYCSSYAGSSTWVFGGGTKLTVLGQPKAAPSVTLFPPSSEELQANKATLVCLISDFYPGAVTVAWKADSSPVKAGVETTTPSKQSNNKYAASSYLSLTPEQWKSHRSYSCQVTHEGSTVEKTVAPTECS,IC50 (pseudoparticle neutralization),[1],0.041 nM
mAb14256 (antibody) heavy: not shown light: QSVLTQPPSVSGAPGQRVTISCTGSSSNIGTHYDVHWYQQLPGTAPKLLIYGNSNRPSGVPDRFSGSKSGTSASLAITGLQAEDEADYYCQSFDNSLTAPYVFGTGTKVTVLGQPKAAPSVTLFPPSSEELQANKATLVCLISDFYPGAVTVAWKADSSPVKAGVETTTPSKQSNNKYAASSYLSLTPEQWKSHRSYSCQVTHEGSTVEKTVAPTECS,IC50 (pseudoparticle neutralization),[2],0.0533 nM
same,IC50 (pseudoparticle neutralization),[1],0.013 nM
"mAb14284 (antibody, V domains shown) VH: QITLKESGPTLVKPTQTLTLTCTFSGFSFSTSGVGVGWIRQPPGKTLEWLALIYWDDDKRYSPSLKSRLTITKDTSKNQVVLTMTNMDPVDTATYFCAHHGIPTIFGYWGQGALVTVSS VL: QSALTQPASVSGSPGQSITISCTGTSSDLGVFNYVSWYQQHPGKAPKLMIYEVTNRPSGVSNRFSGSKSGNTASLTISGLQAEDEADYYCSSYTTSSTVFGGGTKLTVLG [mAb14284, listing 1 of 2 here]",IC50,[3],0.0424 nM
same,IC90,[3],0.384 nM
same,IC50,[4],0.0316 nM
same,IC90,[4],0.32 nM
same,IC50,[5],0.0185 nM
same,IC90,[5],0.189 nM
same,IC50,[6],0.00834 nM
same,IC90,[6],0.0752 nM
same,IC50,[7],0.0222 nM
same,IC90,[7],0.441 nM
same,IC50,[8],0.00609 nM
same,IC90,[8],0.0607 nM
mAb10987 (antibody) heavy: not shown light: QSALTQPASVSGSPGQSITISCTGTSSDVGGYNYVSWYQQHPGKAPKLMIYDVSKRPSGVSNRFSGSKSGNTASLTISGLQSEDEADYYCNSLTSISTWVFGGGTKLTVLGQPKAAPSVTLFPPSSEELQANKATLVCLISDFYPGAVTVAWKADSSPVKAGVETTTPSKQSNNKYAASSYLSLTPEQWKSHRSYSCQVTHEGSTVEKTVAPTECS,"Fold induction, Jurkat CD20",[9],1 fold
same,"Fold induction, Jurkat/CD20/spike",[9],4.5 fold
"mAb15160 (antibody, V domains shown) VH: EVQLVESGGGLVQPGGSLRLSCSASGFTFSRYAMYWVRQAPGKGLEYVSAISSDGGSTYDADSVKGRFTISRANSKNTLYLQMSSLRAEDTAVYYCVKGLRELLYYYYGMDVWGQGTTVTVSS VL: DIQMTQSPSSLSASVGDRVTITCRAGQSISSFLNWYQQKPGKAPKLLIYAASSLQSGVPSRFSGSGSGTDFTLTISSLQPEDFATYYCQQSYITPFTFGPGTKVDIKR","Max ADCP (%), MDM donor #1, Jurkat/hCD20 cells",[10],14.7%
same,"Max ADCP (%), MDM donor #2, Jurkat/hCD20 cells",[10],11.1%
same,"EC50 (M) of ADCP, MDM donor #1, Jurkat/hCD20/SARS-CoV-2 S FL cells",[11],7.81e-11 M
same,"EC50 (M) of ADCP, MDM donor #2, Jurkat/hCD20/SARS-CoV-2 S FL cells",[11],4.76e-11 M
same,"Max ADCP (%), MDM donor #1, Jurkat/hCD20/SARS-CoV-2 S FL cells",[11],27.5%
same,"Max ADCP (%), MDM donor #2, Jurkat/hCD20/SARS-CoV-2 S FL cells",[11],31.1%
same,"Max cytotoxicity (%), ADCC, NK donor #1, Jurkat/hCD20/SARS-CoV-2 S FL cells",[12],1.8%
same,"Max cytotoxicity (%), ADCC, NK donor #2, Jurkat/hCD20/SARS-CoV-2 S FL cells",[12],6.3%
same,"Max cytotoxicity (%), ADCC, NK donor #3, Jurkat/hCD20/SARS-CoV-2 S FL cells",[12],12.9%
"mAb14284 (antibody, V domains shown) VH: QITLKESGPTLVKPTQTLTLTCTFSGFSFSTSGVGVGWIRQPPGKTLEWLALIYWDDDKRYSPSLKSRLTITKDTSKNQVVLTMTNMDPVDTATYFCAHHGIPTIFGYWGQGALVTVSS VL: QSALTQPASVSGSPGQSITISCTGTSSDLGVFNYVSWYQQHPGKAPKLMIYEVTNRPSGVSNRFSGSKSGNTASLTISGLQAEDEADYYCSSYTTSSTVFGGGTKLTVLG [mAb14284, listing 2 of 2 here]","EC50 (M) of ADCP, MDM donor #2, Jurkat/hCD20/SARS-CoV-2 Wu-1 S cells",[13],1.64e-11 M
same,"EC50 (M) of ADCP, MDM donor #1, Jurkat/hCD20/SARS-CoV-2 BA.1 S cells",[14],3.11e-11 M
same,"EC50 (M) of ADCP, MDM donor #2, Jurkat/hCD20/SARS-CoV-2 BA.1 S cells",[14],3.73e-11 M
same,"EC50 (M) of ADCC, pooled primary NK cells, Jurkat/hCD20/SARS-CoV-2 Wu-1 S cells",[15],6.41e-12 M
same,"EC50 (M) of ADCC, pooled primary NK cells, Jurkat/hCD20/SARS-CoV-2 BA.1 S cells",[16],2.64e-11 M
"mAb14287 (antibody, V domains shown) VH: QVQLVQSGAEVKKPGSSVKVSCKASGGTFSNNAISWVRQAPGQGLEWMGKIIPILGIGGDAQKFQGRFTITADKSTSTAYMELSSLRSEDTAVYYCANSGDSRPHAFDIWGQGTMVTVSS VL: QSALTQPASVSGSPGQSITISCTGTSSDVGSYNLVSWYQQHPGKAPKLMIYEVSKRPSGVSNRFSGSKSGNTASLTISGLQAEDEADYYCSSYAGSRREVFGGGTKLTVLG",IC50 (pseudoparticle neutralization),[2],0.00218 nM
same,IC50 (pseudoparticle neutralization),[17],0.00442 nM
same,IC50 FC (fold change relative to D614G control),[17],0.2 fold
same,log10 FC of IC50 relative to D614G control,[17],-0.69 log10 fold
"mAb10987 (Imdevimab) (antibody, V domains shown) VH: QVQLVESGGGVVQPGRSLRLSCAASGFTFSNYAMYWVRQAPGKGLEWVAVISYDGSNKYYADSVKGRFTISRDNSKNTLYLQMNSLRTEDTAVYYCASGSDYGDYLLVYWGQGTLVTVSS VL: QSALTQPASVSGSPGQSITISCTGTSSDVGGYNYVSWYQQHPGKAPKLMIYDVSKRPSGVSNRFSGSKSGNTASLTISGLQSEDEADYYCNSLTSISTWVFGGGTKLTVLG",IC50,[18],0.0151 nM
same,IC90,[18],0.163 nM
same,IC50,[19],1.38 nM
same,IC90,[19],11 nM
same,IC50,[20],0.00458 nM
same,IC90,[20],0.0646 nM
same,IC50,[21],0.0104 nM
same,IC90,[21],0.211 nM
"mAb10933 (Casirivimab) (antibody, V domains shown) VH: QVQLVESGGGLVKPGGSLRLSCAASGFTFSDYYMSWIRQAPGKGLEWVSYITYSGSTIYYADSVKGRFTISRDNAKSSLYLQMNSLRAEDTAVYYCARDRGTTMVPFDYWGQGTLVTVSS VL: DIQMTQSPSSLSASVGDRVTITCQASQDITNYLNWYQQKPGKAPKLLIYAASNLETGVPSRFSGSGSGTDFTFTISGLQPEDIATYYCQQYDNLPLTFGGGTKVEIKR",IC50,[21],0.00432 nM
same,IC90,[21],0.0423 nM
"mAb14235 (antibody, V domains shown) VH: QITLKESGPTLVKPTQTLTLTCTFSGFSLNTGGVGVGWIRQPPGNALEWLALIYWDDDKRYNPSLKTRLTISKDTSKNQVVLTMTNMDPVDTATYFCAHLTIAVIVDFWGQGTLVTVSS VL: QSALTQPASVSGSPGQSITISCTATSSDVGTYNYVSWFQHHPGKAPKLMIYEVTNRPSGVSNRFSGSKSGNTASLTISGLQAEDEADYYCSSYTTTSIVFGGGTKLTVLG",% Blocking at 100 nM mAb concentration,[22],96%
same,RBD.mmh Bound at pH 7.4 (RU),[23],71.2 RU and 80.8 RU
"mAb14260 (antibody, V domains shown) VH: EVQLVESGGGLVQPGGSLRLSCAASGFTFSIYEMNWVRQAPGKGLEWVSYITSSGFTIYYADSVKGRFTISRDNAKNSLYLQMHSLRAEDTAVYYCATSSSSGYYFDYWGQGTLVTVSS VL: not shown",% Blocking at 100 nM mAb concentration,[22],96%
same,IC50,[22],0.127 nM
same,RBD.mmh Bound at pH 7.4 (RU),[23],74.5 RU and 83 RU
same,koff,[23],0.00188 s⁻¹ and 0.00166 s⁻¹
same,t½ Ratio of pH 7.4 to pH 6.0,[23],0.9
same,t½ at pH 6.0,[23],6.9 min
same,t½ at pH 7.4,[23],6.2 min
